Compound potency records, mixed from different reports. Data source: NIAID ChemDB in PubChem.

Common to all: tests in culture; agent: HIV-1; cell line: MT-4; endpoint: EC50

ECn is the concentration giving n% inhibition of infection, replication or growth.

compound,strain or isolate,mutations,method,value
Nc1nc(N)c2ncn([C@H]3C=C[C@@H](OCP(=O)(O)O)O3)c2n1,IIIB,-,RT activity,≥68.3 µg/mL
C=C(C#N)c1cc(C)c(Oc2ccnc(Nc3ccc(CN4CCN(S(C)(=O)=O)CC4)cc3)n2)c(C)c1,IIIB,E138K,MTT,0.0075 µM
CCOCn1c(Cc2ccccc2)c(C(C)C)c(=O)[nH]c1=O,IIIB,-,cytopathic effect / MTT,0.006 µM
Cc1cc(C)c(Oc2ccc(N)c(NC3CCN(Cc4ccc(S(N)(=O)=O)cc4)CC3)n2)c(C)c1,IIIB,-,MTT,0.112 µg/mL
Nc1ccn([C@H]2CC[C@@H](CO)O2)c(=O)n1,IIIB,-,cytopathic effect / MTT,0.35 µM
CC(C)CNc1nc(N)nc2c1ncn2CCOCP(=O)(O)O,IIIB,-,cytopathic effect / MTT,>0.16 µg/mL
Cc1cn([C@H]2C[C@H](N=[N+]=[N-])[C@@H](CO)O2)c(=O)[nH]c1=O,rHXB2,-,p24,<0.025 µM
Cc1cc(C)c(Oc2ccc([N+](=O)[O-])c(NC3CCN(Cc4ccc(S(C)(=O)=O)cc4)CC3)n2)c(C)c1,IIIB,Resistant strain (K103N + Y181C),MTT,>24 µM
COc1nc(Cl)nc2c1ncn2[C@H]1C=C[C@@H](OCP(=O)(O)O)O1,IIIB,-,RT activity,>125 µg/mL
CC(C)Nc1cccnc1N1CCN(C(=O)c2cc3cc(NS(C)(=O)=O)ccc3[nH]2)CC1,IIIB,Resistant strain (K103N + Y181C),MTT,>36 µM
Nc1nc(=O)n([C@@H]2CC[C@H](CO)O2)cc1F,IIIB,-,-,0.2 µM
COc1ccc(S(=O)(=O)NC(N)=NCCC[C@H](NC(=O)N[C@@H](Cc2ccccc2)C(=O)OC(C)(C)C)C(=O)N[C@H](C(=O)N[C@H](C=O)Cc2ccccc2)C(C)C)cc1,-,-,-,<1.7 µM
Nc1ncnc2c1ncn2[C@H]1C[C@H](CO)CS1,-,-,cytopathic effect,>17.6 µM
CC(=O)c1ccc(C)cc1NC(C(N)=O)c1c(Cl)cccc1Cl,IIIB,-,cytopathic effect / MTT,0.01 µM
CCN(C)c1nc(N)nc2c1ncn2CCOCP(=O)(O)O,IIIB,-,cytopathic effect / MTT,0.19 µg/mL
Cc1cc(C#N)cc(C)c1Oc1ccnc(NC2CCN(Cc3ccc(S(C)(=O)=O)cc3)CC2)n1,IIIB,-,MTT,0.0003 µg/mL
Cc1cn([C@H]2C[C@H](CO)CS2)c(=O)[nH]c1=O,-,-,cytopathic effect,>100 µM
CNc1nc(N)c2ncn([C@H]3C=C[C@@H](OCP(=O)(O)O)O3)c2n1,IIIB,-,RT activity,>125 µg/mL
COC(=O)C(Cc1ccccc1)NC(=O)[C@@H](NC(=O)[C@@H](C[C@H](O)[C@H](CC1CCCCC1)NC(=O)[C@@H](NC(=O)[C@H](Cc1ccccc1)CS(=O)(=O)C(C)(C)C)C(C)C)C(C)C)C(C)C,IIIB,-,cytopathic effect / MTT,0.003 µM
CC(C)(C)[C@H](NC(=O)OCc1nc2ccccc2[nH]1)C(=O)N[C@@H](Cc1ccccc1)[C@H](O)[C@@H](CO)[C@H](Cc1ccccc1)NC(=O)[C@@H](NC(=O)OCc1nc2ccccc2[nH]1)C(C)(C)C,IIIB,-,-,4.7 µM
[N-]=[N+]=NC[C@]1(CO)C[C@@H](n2ccc(=O)[nH]c2=O)CO1,IIIB,-,-,>100 µM
CCOC(=O)c1ccc(NC(=O)CSc2nc3ncccc3n2-c2ccc(C3CC3)c3ccccc23)c(Cl)c1,RES056,-,MTT,>3.14 µM
CNc1nc(Nc2c(C)cc(C)cc2C)nc(NC2CCN(Cc3ccc(C(N)=O)cc3)CC2)n1,IIIB,Resistant strain (K103N + Y181C),MTT,0.56 µM
Cc1c(O)cccc1C(=O)N[C@@H](CSc1ccccc1)[C@H](O)CN1C[C@H]2CCCC[C@H]2C[C@H]1C(=O)NC(C)(C)C,-,-,-,<0.032 µM
CSc1nc(N)c2ncn([C@H]3C=C[C@@H](OCP(=O)(O)O)O3)c2n1,IIIB,-,RT activity,75.4 µg/mL
COC(=O)N[C@H](C(=O)N[C@@H](Cc1ccccc1)[C@@H](O)CN(Cc1ccc(-c2ccccn2)cc1)NC(=O)[C@@H](NC(=O)OC)C(C)(C)C)C(C)(C)C,NL4-3,L23I E34Q K43I M46I I50L G51A L63P A71V V82A T91A,p24 / luminescence,>1 µM
N#Cc1ccc(NC(=O)CSc2nc3ncccc3n2-c2ccc(C3CC3)c3ccccc23)c(Br)c1,RES056,-,MTT,>2.78 µM
C[C@H](C[n+]1c[nH]c2c(Nc3ccoc3)nc(N)nc21)OCP(=O)(O)O,IIIB,-,cytopathic effect / MTT,10 µg/mL
CCC(Cc1ccccc1)c1cc(O)c(C(c2cccc(NC(=O)Cc3ccncc3)c2)C2CC2)c(=O)o1,IIIB,-,MTT / p24,>3 µM
COc1ccc(S(=O)(=O)N(CC(C)C)C[C@@H](O)[C@H](Cc2ccccc2)NC(=O)O[C@H]2CO[C@H]3O[C@@H]4OCC[C@@H]4[C@H]32)cc1,NL4-3,M46I V82F I84V,p24 / luminescence,0.0028 µM
CC(C)Nc1cccnc1N1CCN(C(=O)c2cc3cc(NS(C)(=O)=O)ccc3[nH]2)CC1,IIIB,-,MTT,0.038 µM
CCc1cc(NCc2nc3ccccc3o2)c(=O)[nH]c1C,rA17,-,p24,<200 µM
CC(C)[C@H](NC(=O)[C@H](CCCN=C(N)N)NC(=O)N[C@@H](Cc1ccccc1)C(=O)O)C(=O)N[C@H](CO)Cc1ccccc1,-,-,-,>100 µM
Nc1nc(Cl)nc2c1ncn2[C@H]1C=C[C@@H](OCP(=O)(O)O)O1,IIIB,-,RT activity,>9.4 µg/mL
CCC[C@@]1(CCc2ccccc2)CC(O)=C([C@H](CC)c2cccc(NS(=O)(=O)c3ccc(C(F)(F)F)cn3)c2)C(=O)O1,NL4-3,L10F M46I I54V V82A,p24 / luminescence,>1 µM
CC(C)(C)C[C@H](NC(=O)OCc1ccccc1)C(=O)N[C@@H](Cc1ccccc1)[C@H](CO)[C@@H](O)[C@H](Cc1ccccc1)NC(=O)[C@@H](NC(=O)OCc1ccccc1)C(C)(C)C,IIIB,-,-,>10 µM
CC(C)[C@H](NC(=O)N(C)Cc1ccccn1)C(=O)N[C@@H](Cc1ccccc1)[C@H](O)[C@H](O)[C@H](Cc1ccccc1)NC(=O)[C@@H](NC(=O)N(C)Cc1ccccn1)C(C)C,NL4-3,PR-M46I,p24,0.2 µM
OC[C@@H]1CS[C@@H](n2cnc3c(Cl)ncnc32)C1,-,-,cytopathic effect,>1.35 µM
CC(C)(C)[C@H](NC(=O)OCCc1nc2ccccc2[nH]1)C(=O)N[C@@H](Cc1ccccc1)[C@H](O)[C@@H](CO)[C@H](Cc1ccccc1)NC(=O)[C@@H](NC(=O)OCCc1nc2ccccc2[nH]1)C(C)(C)C,IIIB,-,-,>10 µM
Nc1nc(NC2CC2)c2ncn([C@H]3C=C[C@@H](CO)C3)c2n1,IIIB,-,cytopathic effect / MTT,1.6 µM
COC(=O)c1ccc(NC(=O)CSc2nc3ncccc3n2-c2ccc(C3CC3)c3ccccc23)c(Br)c1,RES056,-,MTT,>2.87 µM
CCc1cc(NCc2nc3c(C)ccc(C)c3o2)c(=O)[nH]c1C,rA17,-,p24,<100 µM
CC(C)[C@H](NC(=O)N(C)Cc1ccccn1)C(=O)N[C@@H](Cc1ccccc1)[C@@H](O)[C@H](O)[C@H](Cc1ccccc1)NC(=O)[C@@H](NC(=O)N(C)Cc1ccccn1)C(C)C,NL4-3,-,p24,0.9 µM
Cc1cc(C)c(Nc2ccc([N+](=O)[O-])c(NC3CCN(Cc4ccc(S(C)(=O)=O)cc4)CC3)n2)c(C)c1,IIIB,-,MTT,0.0078 µg/mL
Nc1nc(=O)n([C@@H]2CS[C@H](CO)O2)cc1F,IIIB,-,-,0.5 µM
O=C(O)CSc1ccc2c(c1)c(=O)c1ccccc1n2C1CC1,IIIB,-,trypan blue,<12.5 µg/mL
CCC(Cc1ccccc1)c1cc(O)c(C(c2cccc(NC(=O)[C@@H](C)NC(=O)OC(C)(C)C)c2)C2CC2)c(=O)o1,IIIB,-,MTT / p24,>3 µM
Cc1cn([C@H]2C[C@H](N=[N+]=[N-])[C@@H](COC(=O)CCC(=O)OC[C@H]3O[C@@H]4O[C@H]5[C@H](O)[C@@H](O)[C@@H](O[C@H]6[C@H](O)[C@@H](O)[C@@H](O[C@H]7[C@H](O)[C@@H](O)[C@@H](O[C@H]8[C@H](O)[C@@H](O)[C@@H](O[C@H]9[C@H](O)[C@@H](O)[C@@H](O[C@H]%10[C@H](O)[C@@H](O)[C@@H](O[C@H]3[C@H](O)[C@H]4O)O[C@@H]%10CO)O[C@@H]9CO)O[C@@H]8CO)O[C@@H]7CO)O[C@@H]6CO)O[C@@H]5CO)O2)c(=O)[nH]c1=O,IIIB,-,cytopathic effect / MTT,0.0186 µg/mL
CC(C)[C@H](NC(=O)OCc1ccccc1)C(=O)N[C@@H](Cc1ccccc1)[C@H](O)[C@@H](CO)[C@H](Cc1ccccc1)NC(=O)[C@@H](NC(=O)OCc1ccccc1)C(C)C,IIIB,-,-,>10 µM
CONC(=O)c1ccc(NC(=O)CSc2nc3ncccc3n2-c2ccc(C3CC3)c3ccccc23)c(Cl)c1,IIIB,-,MTT,0.2 µM
Cc1cn([C@H]2C[C@H](N=[N+]=[N-])[C@@H](CO)O2)c(=O)[nH]c1=O,HXB2D,-,p24,0.012 µM
Cc1cc(C)c(Nc2ccc([N+](=O)[O-])c(NC3CCN(Cc4ccc(C(N)=O)cc4)CC3)n2)c(C)c1,IIIB,Resistant strain (K103N + Y181C),MTT,>25 µM
CCC(C)(NC(=O)c1ccc(NC(=O)CSc2nc3ncccc3n2-c2ccc(C3CC3)c3ccccc23)c(Cl)c1)C(=O)O,IIIB,-,MTT,1.41 µM
OC[C@@H]1CS[C@H](n2cnc3c(Cl)ncnc32)C1,-,-,cytopathic effect,>2.31 µM
C=C1[C@H](CO)[C@@H](O)C[C@@H]1n1cnc2c(=O)[nH]c(N)nc21,IIIB,-,MTT,0.0022 µg/mL

Again, the opening 4 rows:

compound	strain or isolate	mutations	method	value
Nc1nc(N)c2ncn([C@H]3C=C[C@@H](OCP(=O)(O)O)O3)c2n1	IIIB	-	RT activity	≥68.3 µg/mL
C=C(C#N)c1cc(C)c(Oc2ccnc(Nc3ccc(CN4CCN(S(C)(=O)=O)CC4)cc3)n2)c(C)c1	IIIB	E138K	MTT	0.0075 µM
CCOCn1c(Cc2ccccc2)c(C(C)C)c(=O)[nH]c1=O	IIIB	-	cytopathic effect / MTT	0.006 µM
Cc1cc(C)c(Oc2ccc(N)c(NC3CCN(Cc4ccc(S(N)(=O)=O)cc4)CC3)n2)c(C)c1	IIIB	-	MTT	0.112 µg/mL

Rows are shuffled and stem from different studies. An empty or dashed field is not shown.